## Library screen at single concentrations

Measurements from “University of Dundee, Small-Polar-MMV Screening Library” (2021), ChEMBL document CHEMBL3988442.

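Growth of Mycobacterium tuberculosis over 4 days (cholesterol / DPPC medium with tyloxapol); the read-out is not stated. Compounds at 500 µM. Direction is inferred from retests: higher values go with more growth inhibition. Size under these conditions: about 18,000 compounds, about 900 of them at 50% or above in at least one test.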

Values are the deposited “Percent Effect”, in %. The record does not define 0% and 100%; most values in the screen are far below 50% and negative numbers occur (in some assays of this library far below -100). This is part of a subset picked to be rich in strong results.

* CCC(C)Oc1cc(C(=O)NCC2(O)CCC2)ccn1 (centres unmarked) : 60.22%
* N#Cc1ccc(NC(=O)Cn2ccnc2)cc1 : 14.19%
* Cn1cc(CNC(=O)c2ccco2)cn1 : 13.72%
* CC(C)CCC(=O)N1CCNCC1 : 2.558%
* CC1CN(c2ccnc3ccc(Cl)cc23)CCS1(=O)=O (centres unmarked) : -2.968%
* COCCNCCNC(=O)c1noc2c1CCCC2 : -0.662%
* CC(C)c1nnc[nH]1 : -8.375%
* COc1cc(OC)cc(C(=O)NCC(C)CN(C)C)c1 (centres unmarked) : 5.274%
* NCCCc1nc(-c2ccncc2)no1 : 5.764%
* CC1(C)Oc2ccc(CN)cc2O1 : -2.462%
* COC(=O)CNc1ccccc1N1CCC(O)CC1 : -4.922%
* OCCCN(CCO)Cc1c(Cl)ccc2cccnc12 : 2.478%
* COc1cc(F)c(C(C)=O)cc1OC : -9.899%
* COc1ccc(OCC(O)CN2CCN(C)CC2)cc1 (centres unmarked) : 4.288%
* Cc1ccc(C(CN)N2CCCC2)o1 (centres unmarked) : 101.7%
* COc1ccccc1N1CCCC(N)C1 (centres unmarked) : 5.703%
* COCC(NC(=O)c1c(C)cc(C)cc1C)C(N)=O (centres unmarked) : -4.604%
* CNC(=O)c1ccccc1S(=O)(=O)CCOC : -0.104%
* COc1ccc(CCN)c(OC)c1OC : 92.22%
* Cc1nnc(CN2CCC(NC(=O)C3CC3)CC2)o1 : -12.82%
* CCC(NC(=O)c1cc(C)[nH]c(=O)c1)c1nc(C)c[nH]1 (centres unmarked) : 4.817%
* COCCOCC(=O)NCc1c(C)cc(C)nc1OC : 13.73%
* Cc1noc(N)c1Cl : 13.1%
* CN1CCC(CNC(=O)Nc2ccccc2F)CC1 : -9.189%
* O=C1Nc2ccccc2C1O (centres unmarked) : 4.302%
* CC(C)CCNC(=O)c1ccc2c(c1)C(=O)N(C)C2=O : -11.75%
* CCS(=O)(=O)NCC(=O)NCc1cc(C)c(F)c(C)c1 : -7.245%
* CCN1CCCN(c2nc(C3CC3)no2)CC1 : -2.019%
* COc1ccsc1C(=O)NCCc1nc(N)no1 : 15%
* Cc1n[nH]/c(=N\C(=O)c2csc(NC3CC3)n2)s1 : 9.231%
* Cn1cc(NC(=O)NC2CCCCC2)c(C(N)=O)n1 : 10.29%
* N[C@H]1CN(C(=O)CCCn2ccnc2)C[C@@H]1C1CC1 : -3.326%
* Cc1noc(OCCOCC2CCCO2)n1 (centres unmarked) : 18.39%
* CN(C(=O)NCc1ccco1)C1(CCO)CCOCC1 : -14.69%

Some entries from above, unchanged:

{"compound": "CC1CN(c2ccnc3ccc(Cl)cc23)CCS1(=O)=O", "stereo": "centres unmarked", "Percent Effect": -2.968}
{"compound": "COc1cc(OC)cc(C(=O)NCC(C)CN(C)C)c1", "stereo": "centres unmarked", "Percent Effect": 5.274}
{"compound": "Cc1nnc(CN2CCC(NC(=O)C3CC3)CC2)o1", "Percent Effect": -12.82}